# System: Clostridium difficile
# Test: Activating effect of arbutin on various beta-glucosidase substrates, colony coloration on agar media
# Type: cell-based
# Procedure: The eight strains of Clostridium difficile tested in Example 1 were tested on media comprising DHF-beta-glucoside (media A), alizarin-beta-glucoside (media B) or 3HF-beta-glucoside (Media C) and an increasing concentration of arbutin.
# The reading of the dishes is then carried out at 24 h and 48 h.
# The media used are prepared on the basis of the C. difficile chromID® medium indicated supra, for example 1, to which arbutin is added according to the following table:
# According to the substrates, the media are therefore as follows: • DHF-beta-glucoside at 400 mg/L (media TA, 1A, 2A and 3A) • Alizarin-beta-glucoside at 50 mg/L (media TB, 1 B, 2B and 3B) • 3HF-beta-glucoside at 300 mg/L (media TC, 1C, 2C and 3C)
# The media are distributed into Petri dishes.
# The seeding is performed from 48 h pre-cultures at 37° C. in anaerobiosis.
# A suspension in physiological water at 0.5 McF is carried out and then the strains are seeded with the 10 μl calibrated loop.
# Readings are performed after 24 h and 48 h of incubation at 37° C. in anaerobiosis.
# Reading scale of the enzymatic activity/ coloration • 0=no activity • 0.5=very pale coloration • 1=clear low-intensity coloration • 2=distinct medium-intensity coloration, • 3=presence of an intense coloration, • 4=presence of a very intense coloration.
smiles,measurement,setting,value
"OC[C@H]1O[C@@H](Oc2ccc(O)cc2)[C@H](O)[C@@H](O)[C@@H]1O [Arbutin, hydroquinone-beta-D-glucoside]",ideal concentration of arbutin,with DHF-beta-glucoside and 3HF-beta-glucoside,~1 g/L
same,ideal concentration of arbutin,with alizarin-beta-glucoside,~0.5 g/L

# Source: patent US20130137126A1, “USE OF A BETA-G[…] FOR THE DETECTION AND/OR IDENTIFICATION OF C. DIFFICILE” (BIOMERIEUX, priority 2010, published 2013)
